Assay results taken from PMC9537594.

Legend:
[1] = target: Cross-linked His-CAhex: disulfide-stabilized hexamer of 6-His-CA(A14C/E45C/W184A/M185A) (HIV-1); assay: SPR; Reichert 4-SPR; cross-linked His-CAhex immobilised on an NTA chip via the C-terminal His-tag; peptides 3.9 μM to 2 mM; 0.01 M HEPES pH 7.4, 0.15 M NaCl, 0.05% v/v Surfactant P20; simple kinetic model
[2] = target: cross-linked His-CAhex, 6-His-CA(A14C/E45C/W184A/M185A) (HIV-1); assay: SPR; Reichert 4-SPR; cross-linked His-CAhex immobilised on an NTA chip via the C-terminal His-tag; peptides 3.9 µM to 2 mM; 0.01 M HEPES pH 7.4, 0.15 M NaCl, 0.05% Surfactant P20; Scrubber 2.0, simple kinetic model

| Substance | Kd [1] [µM] | Kd [2] [µM] |
| --- | --- | --- |
| CPSF6_(313-327) 15-mer FG peptide (from UniProt Q16630-2 313-327) | 71 |  |
| CPSF6313-327 peptide |  | 70.9 |
